Test results from article PMC4538832, “Structures of the T. brucei kRNA editing factor MRB1590 reveal unique RNA-binding pore motif contained within an ABC-ATPase fold” (Nucleic Acids Research, 2015).
The exact form of at least one protein or probe is not confirmed. Protein sequences can lack the tags named with them.

System: T1, MRB1590(10-668) (Trypanosoma brucei)
T1 sequence (looked up, limits assumed): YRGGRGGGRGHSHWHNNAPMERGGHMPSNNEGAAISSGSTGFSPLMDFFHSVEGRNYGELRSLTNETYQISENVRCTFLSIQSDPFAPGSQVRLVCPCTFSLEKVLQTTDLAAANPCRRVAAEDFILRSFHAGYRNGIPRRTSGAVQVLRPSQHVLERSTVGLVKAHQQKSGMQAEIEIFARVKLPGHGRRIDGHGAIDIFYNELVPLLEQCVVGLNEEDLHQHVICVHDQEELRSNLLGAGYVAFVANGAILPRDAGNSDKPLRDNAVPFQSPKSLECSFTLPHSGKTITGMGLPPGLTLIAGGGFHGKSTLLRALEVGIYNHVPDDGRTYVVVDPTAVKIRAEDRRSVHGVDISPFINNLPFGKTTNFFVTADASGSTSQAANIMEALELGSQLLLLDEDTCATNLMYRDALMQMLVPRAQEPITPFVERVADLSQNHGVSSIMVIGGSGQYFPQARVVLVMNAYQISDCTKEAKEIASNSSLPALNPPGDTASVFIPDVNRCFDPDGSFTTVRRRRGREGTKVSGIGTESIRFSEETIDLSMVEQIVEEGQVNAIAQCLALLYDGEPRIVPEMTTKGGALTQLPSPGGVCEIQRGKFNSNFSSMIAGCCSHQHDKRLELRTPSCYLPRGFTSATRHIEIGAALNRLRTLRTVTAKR
Experiment: fluorescence polarization
Conditions: AMP-PNP (table header says ATP), Mg2+, FP: 20 mM Tris-HCl pH 7.5, 150 mM NaCl, 5% glycerol, 1 mM MgCl2, 2 mM ADP or AMP-PNP, 1 nM 3'-fluoresceinated RNA (heated to 99 C, slow cooled), 25 C, recombinant protein

| Sequence | Kd (label: 3' fluorescein) [nM] | Kd (letters put together from the description) [nM] |
| --- | --- | --- |
| AGGCGGGCGGGCGACGGCGGU [GC-rich sequence RNA (A6 pause site, 21 mer)] | 72 |  |
| AGGCGGGCGGGCGACGGCGGU / ACCGCCGUCGCCCGCCCGCCU [dsGC-rich RNA] |  | 174 |
| UUUUUUUUUUUUUUU [U15 RNA] | 471 |  |
| AAAAAAAAAAAAAAA [A15 RNA] | 720 |  |
